For one assay, the system named is SK-MEL-28. Description: Anticancer activity against human SK-MEL-28 cells assessed as growth inhibition. Format: functional. The procedure, abridged: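 NCI in vitro disease-oriented human tumor cell screen, about 60 lines. Growth inhibition read as pGI50, the -log of the molar concentration inhibiting 50% net cell growth. A mean graph midpoint is the arithmetic mean over all tested lines. Where the effect was not reached within the concentration interval, the highest tested concentration was used.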

In the next assay the test system is SNB-75. Description: Anticancer activity against human SNB75 cells assessed as growth inhibition. The class given is functional, cell-based.
In a further assay the test system is SK-MEL-2. In words: Anticancer activity against human SK-MEL-2 cells assessed as growth inhibition. The class given is functional, cell-based.
For another assay, the system named is UACC-257. In words: Anticancer activity against human UACC257 cells assessed as growth inhibition. Format: functional, cell-based.
Another assay has as its system MDA-MB-231. In words: Anticancer activity against human MDA-MB231/ATCC cells assessed as growth inhibition. Format: functional, cell-based.

As usually defined, the GI50 is the concentration that inhibits growth by half. As to `CC[As](CC)SCC(O)CO` (centres undefined), in the assay with SK-MEL-28, the 50% growth inhibitory concentration (GI50) came to 132 nM.
For `CCC[As](CCC)SCC(O)CO` (centres undefined), the 50% growth inhibitory concentration (GI50) with SK-MEL-28 turned out to be 155 nM.
Regarding `CC(=O)OCC(CS[As](C)C)OC(C)=O` (centres undefined), the concentration for 50% growth inhibition (GI50) in the assay on SNB-75 came to 2290 nM; with SK-MEL-2, 708 nM; with SK-MEL-28 it was 2450 nM; in the assay with UACC-257 it was 102 nM; in the assay on MDA-MB-231, 141 nM.
With `C[As](C)SCC(O)CO` (centres undefined), in the assay on SK-MEL-28, the GI50 was 282 nM.
The same measure, in the same setting: under `CC(C)[As](SCC(O)CO)C(C)C` (centres undefined) stands 1200 nM.
